This assay addresses wt Cdr1 (FLC efflux of AD/CDR1 cells) (Candida albicans, UniProt Q5ANA3). To be noted: read-out: IC50 for inhibition of FLC efflux (MICFLC), live whole cells, from Fig. 3B.

By UniProt entry, the sequences of proteins in these tests, tags left out. Where a name states a change or a piece, a line headed by the entry shows the natural chain unless it says otherwise.
UniProt Q5ANA3: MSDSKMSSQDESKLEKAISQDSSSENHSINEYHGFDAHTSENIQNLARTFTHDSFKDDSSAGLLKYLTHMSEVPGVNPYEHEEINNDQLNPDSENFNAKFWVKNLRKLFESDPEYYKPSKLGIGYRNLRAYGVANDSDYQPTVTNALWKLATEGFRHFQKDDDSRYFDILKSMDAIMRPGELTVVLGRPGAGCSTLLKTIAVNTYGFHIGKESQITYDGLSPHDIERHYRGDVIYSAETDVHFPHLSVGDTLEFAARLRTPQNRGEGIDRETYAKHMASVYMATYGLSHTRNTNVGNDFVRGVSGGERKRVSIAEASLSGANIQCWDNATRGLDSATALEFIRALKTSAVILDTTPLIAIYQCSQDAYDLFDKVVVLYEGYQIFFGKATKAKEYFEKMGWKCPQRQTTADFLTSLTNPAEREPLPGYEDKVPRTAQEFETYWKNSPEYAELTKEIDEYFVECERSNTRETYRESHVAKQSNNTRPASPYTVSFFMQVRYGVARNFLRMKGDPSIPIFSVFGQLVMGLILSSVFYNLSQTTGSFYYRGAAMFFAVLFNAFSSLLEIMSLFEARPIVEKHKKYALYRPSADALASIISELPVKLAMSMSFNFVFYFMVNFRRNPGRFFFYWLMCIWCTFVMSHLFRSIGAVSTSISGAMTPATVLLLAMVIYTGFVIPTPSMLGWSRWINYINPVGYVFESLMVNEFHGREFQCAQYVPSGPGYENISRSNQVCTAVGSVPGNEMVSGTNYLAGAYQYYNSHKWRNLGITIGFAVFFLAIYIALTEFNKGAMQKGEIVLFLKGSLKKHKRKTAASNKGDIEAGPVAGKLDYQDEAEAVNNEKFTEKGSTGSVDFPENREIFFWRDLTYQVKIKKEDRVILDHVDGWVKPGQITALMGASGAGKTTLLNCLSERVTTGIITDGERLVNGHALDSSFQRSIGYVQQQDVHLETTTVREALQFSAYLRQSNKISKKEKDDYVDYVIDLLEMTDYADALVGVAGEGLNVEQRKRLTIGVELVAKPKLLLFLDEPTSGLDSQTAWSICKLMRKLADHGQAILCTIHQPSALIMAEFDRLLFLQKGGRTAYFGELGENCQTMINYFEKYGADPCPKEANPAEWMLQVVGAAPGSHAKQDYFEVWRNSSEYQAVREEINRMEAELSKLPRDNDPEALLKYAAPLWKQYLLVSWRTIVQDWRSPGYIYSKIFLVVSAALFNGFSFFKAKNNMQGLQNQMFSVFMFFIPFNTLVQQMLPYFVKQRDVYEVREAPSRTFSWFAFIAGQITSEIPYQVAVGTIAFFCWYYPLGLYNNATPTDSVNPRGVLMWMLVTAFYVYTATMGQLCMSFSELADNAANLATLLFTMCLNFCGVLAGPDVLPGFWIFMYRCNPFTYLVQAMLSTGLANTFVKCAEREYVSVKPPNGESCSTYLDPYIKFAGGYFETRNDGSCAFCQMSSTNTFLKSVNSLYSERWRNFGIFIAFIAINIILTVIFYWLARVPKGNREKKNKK

Our source for the IC50 values is PMC8765293, “Inhibitor-Resistant Mutants Give Important Insights into Candida albicans ABC Transporter Cdr1 Substrate Specificity and Help Elucidate Efflux Pump Inhibition” (Antimicrobial Agents and Chemotherapy, 2022).

Regarding beauvericin, the IC50 stood at 310 nM.

One may read the IC50 as the concentration that gives 50% inhibition.
